Data source: PubChem BioAssay AID504761 (Drosophila RNAi Screening Center, 2011)

Screen: 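Genome-wide fly cell screen for genes dengue virus requires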 (primary screen)
Cells: D.Mel-2 cells from Drosophila
Reagent: long dsRNA against Drosophila genes
Treatment: infection with dengue virus type 2; dose and infection time not stated
Read-out: 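Cells stained for dengue envelope protein and imaged; percent of infected cells per well on duplicate plates, ranked by infection, with stained nuclei counted for cell number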
Scale: infection score: higher = more virus-infected cells
Hit rule: 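Low infection ranks in the two replicates (chance level up to 0.065) followed by a retest with a 1.5-fold or larger significant decrease, p below 0.05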
Meaning of the calls: active = confirmed: knock-down lowers infection; inactive = not picked or not confirmed
The deposit covers about 22,000 reagents; below is a random part of those that have a named target and a result. Of all reagents, 116 (0.52%) were called active. 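Calls depend on retest data that are not deposited; infection was ranked per plate without normalising between plates; the unit of the infection score is not given.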 The numbers tell different reagents against one gene apart. Not all columns of the deposit are shown. No sequences are given here. The record does not give: the amount of reagent, the time to read-out.

The first 2 records, ahead of the listing:
target gene	reagent no.	infection score, replicate 1	infection score, replicate 2	activity call
RpS26 (Ribosomal protein S26)	1	6.86	9.96	inactive
CG13699	1	7.17	1.26	inactive

Main list, from the first entry:
target gene	reagent no.	infection score, replicate 1	infection score, replicate 2	activity call
RpS26 (Ribosomal protein S26)	1	6.86	9.96	inactive
CG13699	1	7.17	1.26	inactive
CG13699	2	9.88	5.95	inactive
MED22 (Mediator complex subunit 22)	1		8.18	inactive
endos (endosulfine)	1	19.9	22.1	inactive
endos (endosulfine)	2	9.85		inactive
CG17917	1	2.94	3.76	inactive
Acp53Ea (Accessory gland protein 53Ea)	1	3.77	3.86	inactive
Spase22-23 (Spase 22/23-subunit)	1	0.49	0.4	inactive
CG5033	1	5.94	9.24	inactive
CG5033	2	10.9	12	inactive
CG31955	1	6.3	4.36	inactive
mv (mauve)	1	2.91	2.81	inactive
mv (mauve)	2	2.12	1.67	inactive
mv (mauve)	3	3.88	1.92	inactive
bigmax	1	15.9	8.94	inactive
bigmax	2	2.62	10.8	inactive
CG31437	1	1.07	0.17	inactive
CCT7 (Chaperonin containing TCP1 subunit 7)	1	10.6	7.33	inactive
CG10581	1	12.7	9.91	inactive
mRpL55 (mitochondrial ribosomal protein L55)	1	6.63	4.53	inactive
Tmem43 (Transmembrane protein 43)	1	10.2	8.84	inactive
Tmem43 (Transmembrane protein 43)	2	5.47	4.94	inactive
